Results from US8703172B2, “Sphingolipids for improvement of the composition of the intestinal flora” (Nederlandse Organizatie voor …, priority 2003, dated 2014).

Each compound was assayed on Escherichia coli 0157:H7 (assay: MIC on agar plates (TSA)). Settings: Escherichia coli, 48 h, read-out: MIC, E. coli O157:H7.

Q: CCCCCCCCCCCCC/C=C/[C@@H](O)[C@@H](N)CO [Sphingosine, sphingosine] was tested. Which MIC did it give?
A: > 731 µg/mL

Q: Which MIC does the source give for CC(=O)O.CCCCCCCCCCCCCCC[C@@H](O)[C@@H](N)CO [Sphinganine, sphinganine acetate] here?
A: > 731 µg/mL

Q: CCCCCCCCCCCCCC[C@@H](O)[C@@H](O)[C@@H](N)CO [Phytosphingosine, phytosphingosine] was tested. Which MIC did it give?
A: > 731 µg/mL

Same assay, conditions: TSA agar plate, aerobic, 48 hours at 30° C.

Q: Which “MIC, E. coli O157:H7” value does the source give for glucosylceramide III here?
A: >365 µg/mL

Q: How did the “MIC, E. coli O157:H7” value turn out when CCCCCCCCCCCCC/C=C/[C@@H](O)[C@@H](N)COP(=O)([O-])OCC[N+](C)(C)C [Lysosphingomyelin, lysosphingomyelin] was run?
A: >365 µg/mL

Q: With sphingomyelin as the compound, how does the “MIC, E. coli O157:H7” value read?
A: >731 µg/mL
